Measurements reported in PubChem BioAssay AID1259414 (Drosophila RNAi Screening Center, 2018)

- Aim: 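Host factors increasing or decreasing Wolbachia levels in cultured fly cells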 (primary screen)
- Cell system: Drosophila JW18 cells infected with Wolbachia
- Reagent: long dsRNA against Drosophila genes, 0.25 µg dsRNA per well of a 384-well plate
- Duration: 5 days
- Conditions: cells persistently infected with Wolbachia before knock-down; no added drug
- Measurement: 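Automated imaging of bacterial rRNA staining divided by host cell count, reported as plate-normalised robust z-score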
- Direction: Wolbachia per cell robust z: higher = more Wolbachia per host cell than the plate typical
- Call rule: 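Hit when robust z is 1.5 or more, or -1.5 or less, in at least two of three replicates; excludes dsRNAs with several or no targets, genes not expressed in JW18 and well A1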
In all, the deposit lists about 24,000 reagents; shown is a random part of those with a known target gene and a result. Over the whole deposit, about 1,210 (5%) are marked active. 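Inactive calls also include excluded dsRNAs with several or no targets, genes unexpressed in JW18, and well A1, regardless of score.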

For CG41242 [DRSC41341], what was measured?
Wolbachia per cell robust z, rep 1: 0.461; Wolbachia per cell robust z, rep 2: -0.102; Wolbachia per cell robust z, rep 3: 0.477; outcome: inactive

What is on record for CG14109 [DRSC10112]?
Wolbachia per cell robust z, rep 1: -0.279; Wolbachia per cell robust z, rep 2: -1.09; Wolbachia per cell robust z, rep 3: 1.97; outcome: inactive

For CG14109 [DRSC25337], what does the deposit list?
Wolbachia per cell robust z, rep 1: 1.47; Wolbachia per cell robust z, rep 2: -3.28; Wolbachia per cell robust z, rep 3: -1; outcome: inactive

What is on record for E2f1 (E2F transcription factor 1) [DRSC16655]?
Wolbachia per cell robust z, rep 1: 1.78; Wolbachia per cell robust z, rep 2: 0.864; Wolbachia per cell robust z, rep 3: 2.12; outcome: active

How did the screen score E2f1 (E2F transcription factor 1) [DRSC29572]?
Wolbachia per cell robust z, rep 1: -0.041; Wolbachia per cell robust z, rep 2: -0.243; Wolbachia per cell robust z, rep 3: -0.514; outcome: inactive

What is on record for AMPKalpha (AMP-activated protein kinase alpha subunit) [DRSC18714]?
Wolbachia per cell robust z, rep 1: -0.0554; Wolbachia per cell robust z, rep 2: 0.0203; Wolbachia per cell robust z, rep 3: 0.372; outcome: inactive

Which result is listed for AMPKalpha (AMP-activated protein kinase alpha subunit) [DRSC28055]?
Wolbachia per cell robust z, rep 1: -1.01; Wolbachia per cell robust z, rep 2: -1.01; Wolbachia per cell robust z, rep 3: 0.792; outcome: inactive

With AspRS (Aspartyl-tRNA synthetase) [DRSC05914], what does the deposit list?
Wolbachia per cell robust z, rep 1: 1.59; Wolbachia per cell robust z, rep 2: -0.765; Wolbachia per cell robust z, rep 3: -0.93; outcome: inactive

For bif (bifocal) [DRSC18901], how do the results read?
Wolbachia per cell robust z, rep 1: 0.184; Wolbachia per cell robust z, rep 2: 0.896; Wolbachia per cell robust z, rep 3: 0.339; outcome: inactive

With bif (bifocal) [DRSC20313], how do the results read?
Wolbachia per cell robust z, rep 1: -0.0731; Wolbachia per cell robust z, rep 2: 0.774; Wolbachia per cell robust z, rep 3: -0.358; outcome: inactive

How did the screen score bif (bifocal) [DRSC28382]?
Wolbachia per cell robust z, rep 1: -1.17; Wolbachia per cell robust z, rep 2: 1.47; Wolbachia per cell robust z, rep 3: 1.29; outcome: inactive

Which result is listed for AcCoAS (Acetyl Coenzyme A synthase) [DRSC11477]?
Wolbachia per cell robust z, rep 1: -0.0648; Wolbachia per cell robust z, rep 2: -2.05; Wolbachia per cell robust z, rep 3: -1.26; outcome: inactive

For AcCoAS (Acetyl Coenzyme A synthase) [DRSC11603], what was measured?
Wolbachia per cell robust z, rep 1: 0.705; Wolbachia per cell robust z, rep 2: -0.679; Wolbachia per cell robust z, rep 3: 0.758; outcome: inactive

For AcCoAS (Acetyl Coenzyme A synthase) [DRSC22850], what does the deposit list?
Wolbachia per cell robust z, rep 1: 1.32; Wolbachia per cell robust z, rep 2: -0.534; Wolbachia per cell robust z, rep 3: 0.83; outcome: inactive

How did the screen score AcCoAS (Acetyl Coenzyme A synthase) [DRSC25972]?
Wolbachia per cell robust z, rep 1: 1.09; Wolbachia per cell robust z, rep 2: 1.52; Wolbachia per cell robust z, rep 3: 1.7; outcome: active

With CG14760 [DRSC06495], how do the results read?
Wolbachia per cell robust z, rep 1: -0.715; Wolbachia per cell robust z, rep 2: -0.19; Wolbachia per cell robust z, rep 3: 0.297; outcome: inactive

For CG14760 [DRSC23957], how do the results read?
Wolbachia per cell robust z, rep 1: 1.84; Wolbachia per cell robust z, rep 2: 0.652; Wolbachia per cell robust z, rep 3: -5.09; outcome: inactive
